Compound potency records, mixed from different reports. Data source: NIAID ChemDB in PubChem.

All rows: growth or infection tests; agent: Mycobacterium tuberculosis

MIC bound comes from a single tested concentration.

structure | strain or isolate | method | endpoint | tested at | result
CO[C@H]1[C@@H](O)[C@@H](C)O[C@H](O[C@H]2[C@H](Oc3cccc4c(O)c5c(=O)oc6ccc(C)c7c(=O)oc(c34)c5c67)O[C@H](C)[C@H](O)[C@@H]2O)[C@@H]1O | H37Rv | BACTEC | MIC bound |  | >128 µg/mL
CCCCCCCCCCCNCCNCCc1ccccc1Cl |  |  | MIC |  | 25 µM
CNC(=O)ON(C(C)=O)C(=O)NC | H37Rv | BACTEC | MIC bound |  | >12.5 µg/mL
O=C1CC(c2ccccc2)Oc2cc(I)ccc21 |  |  | inhibition | 12.5 µg/mL | 9%
O=C(/C=C/c1ccc(O)cc1)OC[C@H]1O[C@@H](Oc2cc(O)c3c(c2)OC(c2ccc(O)cc2)CC3=O)[C@H](O)[C@@H](O)[C@@H]1O | H37Rv | BACTEC | inhibition | 12.5 µg/mL | 18%
NCC[C@H](O)C(=O)N[C@@H]1C[C@H](N)[C@@H](O[C@H]2O[C@H](CN)[C@@H](O)[C@H](O)[C@H]2O)[C@H](O)[C@H]1O[C@H]1O[C@H](CO)[C@@H](O)[C@H](N)[C@H]1O | H37Rv |  | MIC |  | 1 µg/mL
C=C(C)C(=O)O[C@H]1CC2=C[C@@H](C[C@@]3(C)O[C@H]3[C@H]3OC(=O)C(=C)[C@@H]31)OC2=O | H37Rv | BACTEC | MIC |  | ≥12.8 µg/mL
Nc1ccc(Cc2ccc(N)cc2N)c(N)c1 | H37Rv |  | MIC |  | 100 µg/mL
CC(CNC[C@@H]1CC[C@H]2C[C@@H]1C2(C)C)NC[C@@H]1CC[C@H]2C[C@@H]1C2(C)C |  |  | MIC |  | 6.25 µM
CC12CC/C(=N\NC(=O)Cc3c[nH]c4ccccc34)C=C1CCC1C2CCC2(C)C(OC(=O)c3ccccc3)CCC12 | H37Rv | BACTEC | MIC bound |  | >12.5 µg/mL
O=C1CC(c2ccc(Cl)cc2)Oc2ccccc21 |  |  | EC50 |  | >12.5 µg/mL
Nc1ccc2ccc(S(=O)(=O)O)cc2c1 | H37Rv |  | MIC |  | >100 µg/mL
CCOC(=O)Nc1cc(N)c2c(n1)OCC(c1cccc(OC)c1)=N2 | H37Rv |  | inhibition | 12.5 µg/mL | 0%
CCCCC(CC)CN1CN(CC(CC)CCCC)CC(C)(NCCNCc2cccc(F)c2)C1 |  |  | MIC |  | 50 µM
NC(=O)CC(N)=O | H37Rv |  | MIC |  | >100 µg/mL
CO[C@H]1/C=C/O[C@@]2(C)Oc3c(C)c(O)c4c(=O)c(c5oc6cc(N7CCN(CC(C)C)CC7)cc(=O)c6nc5c4c3=C2O)NC(=O)/C(C)=C\C=C\[C@H](C)[C@H](O)[C@@H](C)[C@@H](O)[C@@H](C)[C@H](OC(C)=O)[C@@H]1C | 3147 (rifampin-sensitive) |  | MBC |  | 0.003 µg/mL
O=C1CC(c2ccccc2O)Oc2ccccc21 | H37Rv |  | EC50 |  | >12.5 µg/mL
CCCCC(CC)CN1CN(CC(CC)CCCC)CC(C)(NCCNCCCO)C1 |  |  | MIC |  | 12.5 µM
CCCCCCCCCCCCCCCCCC1=NCCN1 | H37Rv |  | MIC |  | >100 µg/mL
CCCCC(=O)C(C)Nc1cc(NC(=O)OCC)nc(N)c1[N+](=O)[O-] | H37Rv |  | inhibition | 12.5 µg/mL | 3%
CCCCCCCCc1ccccn1 | H37Rv |  | MIC |  | >100 µg/mL
CO[C@H]1/C=C/O[C@@]2(C)Oc3c(C)c(O)c4c(=O)c(c5oc6cc(N7CCN(CC(C)C)CC7)cc(=O)c6nc5c4c3=C2O)NC(=O)/C(C)=C\C=C\[C@H](C)[C@H](O)[C@@H](C)[C@@H](O)[C@@H](C)[C@H](OC(C)=O)[C@@H]1C | TN1733 |  | MIC |  | 8 µg/mL
CC1=CC(=O)C2=C(C)CCC3C(C)C(=O)OC3C12 | H37Rv | BACTEC | MIC bound |  | >12.8 µg/mL
Cc1ccc2c(c1)N(CC(N)=O)CCC2 | H37Rv |  | MIC |  | >100 µg/mL
COc1nc(N)c(NC2OC[C@@H](O)[C@@H](O)[C@@H]2O)c(=O)n1C | H37Rv | resazurin | MIC bound |  | >6.25 µg/mL
CC1CCCC(NCCNCc2ccc(C(F)(F)F)cc2)C1C |  |  | MIC |  | >50 µM
CC(C)N=c1cc2n(-c3ccc(Cl)cc3)c3ccccc3nc-2cc1Nc1ccc(Cl)cc1 | MDR18 | broth dilution / resazurin | MIC |  | 2 µg/mL
CCC(C)NCCNCCc1ccc(Cl)cc1Cl |  |  | MIC |  | 25 µM
O=C(/C=C/c1ccc(Br)cc1)c1ccccc1O | H37Rv |  | EC50 |  | <12.5 µg/mL
O=c1[nH][nH]c2ncccc12 | H37Rv | BACTEC | MIC bound |  | >12.5 µg/mL
CC(CNC[C@@H]1CC[C@H]2C[C@@H]1C2(C)C)NCC12CC3CC(CC(C3)C1)C2 |  |  | MIC |  | 6.25 µM
O=C1C2=C(Nc3cc(Cl)ccc3N2)OC1c1ccc2c(c1)OCO2 | H37Rv | BACTEC | MIC bound |  | >12.5 µg/mL
CO[C@H]1/C=C/O[C@@]2(C)Oc3c(C)c(O)c4c(O)c(c(/C=N/N5CCN(C/C=C/c6ccccc6)CC5)c(O)c4c3C2=O)NC(=O)/C(C)=C\C=C\[C@H](C)[C@H](O)[C@@H](C)[C@@H](O)[C@@H](C)[C@H](OC(C)=O)[C@@H]1C | 2831 (rifampin-sensitive) |  | MIC |  | 0.05 µg/mL
O=C(O)/C=C\C(=O)Nc1ccccc1 | H37Rv |  | MIC |  | 50 µg/mL
CC(NCCNCCc1ccccc1Cl)C12CC3CC(CC(C3)C1)C2 |  |  | MIC |  | 50 µM
O=C(O)CSC(=S)N1CCN(C(=S)SCC(=O)O)CC1 | H37Rv | BACTEC | MIC bound |  | >12.5 µg/mL
CCOC(=O)Nc1cc2c(nc(SCc3ccccc3)n2/N=C/c2ccccc2)c(N)n1 | H37Rv |  | EC50 |  | >12.5 µg/mL
COc1cc(O)c2c(c1O)C(=O)c1cc(C)ncc1C2=O | H37Rv | BACTEC | MIC bound |  | >12.8 µg/mL
Cc1cccc(CNCCNC[C@]2(C)CCC[C@]3(C)c4ccc(C(C)C)cc4CC[C@@H]23)c1 |  |  | MIC |  | 12.5 µM
Nc1ccc(C(=O)/C=C/c2cccnc2N)cc1 |  |  | EC50 |  | >12.5 µg/mL
CC(=O)Oc1c(C)cccc1C(=O)O | H37Rv |  | MIC |  | >100 µg/mL
CC1(C)[C@H]2CC[C@@H](CNCCNCCCN3CCCC3=O)[C@@H]1C2 |  |  | MIC |  | 50 µM
CC1=C(Br)C(=O)C(C(C)C)=CC1=O | H37Rv | BACTEC | MIC |  | 32 µg/mL
Nc1cc(O)cc2cccnc12 | H37Rv |  | MIC |  | 12.5 µg/mL
CCOC(=O)Nc1cc(N)c([N+](=O)[O-])c(N[C@H](C)/C(=C\O)c2ccc(O)cc2)n1 | H37Rv |  | EC50 |  | >12.5 µg/mL
Nc1ncccc1/C=C/C(=O)c1ccc2c(ccc3ccccc32)c1 | H37Rv |  | inhibition | 12.5 µg/mL | 74%
CC1CN(c2cc3c(cc2F)c(=O)c(C(=O)O)cn3-c2ccc(F)cc2F)CCN1 | Drug-resistant |  | MIC50 |  | 1 µg/mL
CCN(CC)c1cc2oc3cc(N)cc(=N)c-3nc2cc1C | EMB-R |  | MIC |  | 0.8 µg/mL
C[C@H]1C[C@H](N)CN1c1cc2c(cc1F)c(=O)c(C(=O)O)cn2-c1ccc(F)cc1F | ATCC 35830 |  | MBC |  | 8 µg/mL
CC(Cc1c[nH]c2ccccc12)NCCNC1CCCC(C)C1C |  |  | MIC |  | 50 µM
CCCCC(CC)CN1CN(CC(CC)CCCC)CC(C)(NCCNCCc2ccccc2)C1 |  |  | MIC |  | 6.25 µM
COC(=O)c1nc(N)nc(C(=O)OC)c1C(=O)c1ccc(N2CCN(c3ccc(C(=O)c4c(C(=O)OC)nc(N)nc4C(=O)OC)cc3)CC2)cc1 | H37Rv | BACTEC | MIC bound |  | >12.5 µg/mL
COc1ccccc1CCNCCNCCCCc1ccccc1 |  |  | MIC |  | 25 µM
CCCCC(C)C(C)N(C)c1cc(NC(=O)OCC)nc(N)c1N | H37Rv |  | EC50 |  | >12.5 µg/mL
CC(=O)/C=C/c1ccccc1O | H37Rv |  | MIC |  | 50 µg/mL
O=C(O)/C=C/c1ccc(-c2cc(C(F)(F)F)cc(C(F)(F)F)c2)o1 | H37Rv | BACTEC | MIC bound |  | >12.5 µg/mL
COC(=O)c1ccccc1C(=O)N(C)C | H37Rv |  | MIC |  | >100 µg/mL
CC[C@H]1OC(=O)[C@H](C)[C@@H](O[C@H]2C[C@@](C)(OC)[C@@H](O)[C@H](C)O2)[C@H](C)[C@@H](O[C@@H]2O[C@H](C)C[C@H](N(C)C)[C@H]2O)[C@](C)(O)C[C@@H](C)CN(C)[C@H](C)[C@@H](O)[C@]1(C)O | ATCC35838 |  | MBC |  | >8 µg/mL
Cl.c1ccc(N(CCCN2CCCCC2)CCCN2CCCCC2)nc1 | H37Rv |  | MIC |  | >100 µg/mL
CN(C)c1ccc(/C=N/NC(=O)C(=O)NCc2ccco2)cc1 | H37Rv | BACTEC | MIC bound |  | >12.5 µg/mL
CC(=O)NNC(C)=O | H37Rv |  | MIC |  | >100 µg/mL
N/C(C/C(=N/OC(=O)c1ccccc1)OC(=O)c1ccccc1)=N/O | H37Rv | resazurin | MIC bound |  | >6.25 µg/mL
CCOC(=O)C1=C(C)NC(C)=C(C(=O)OCC)C1C | H37Rv |  | MIC |  | 50 µg/mL
COc1cccc2c1C(=O)c1c(O)c3c(c(O)c1C2=O)CC(O)(C(C)=O)CC3OC1CC(NCC2(O)OC(C(=O)NCCCN(C)C)C(O)C2O)C(O)C(C)O1 | H37Rv | BACTEC | MIC |  | ≥12.5 µg/mL
O=C(O)c1cccc(S(=O)(=O)O)c1 | H37Rv |  | MIC |  | >100 µg/mL
CC[C@H]1OC(=O)[C@H](C)[C@@H](O[C@H]2C[C@@](C)(OC)[C@@H](O)[C@H](C)O2)[C@H](C)[C@@H](O[C@@H]2O[C@H](C)C[C@H](N(C)C)[C@H]2O)[C@](C)(OC)C[C@@H](C)C(=O)[C@H](C)[C@@H](O)[C@]1(C)O | Drug-resistant |  | MIC90 |  | >8 µg/mL
Nc1ccc(-c2nc(N)nc(N)n2)cc1 | H37Rv |  | MIC |  | >100 µg/mL
OC[C@H](Cc1ccc(Cl)cc1)NCCNCCc1ccc(Cl)cc1Cl |  |  | MIC |  | 25 µM
c1ccc2c(c1)oc1ccccc12 | H37Rv |  | MIC |  | >100 µg/mL
CCOC(=O)Nc1cc(N)c2[nH]c(-c3ccccc3)nc2n1 | H37Rv |  | EC50 |  | >12.5 µg/mL
CN(CCN(C)c1ccc(N)cc1)c1ccc(N)cc1.O=S(=O)(O)O | H37Rv |  | MIC |  | >100 µg/mL
CN(C)c1ccc(NN=C2SC(=Nc3ccccc3)C(=Nc3ccccc3)S2)cc1 | H37Rv | resazurin | inhibition | 6.25 µg/mL | 13%
CCCCCNC(C)C(=O)c1ccccc1.Cl | H37Rv |  | MIC |  | >100 µg/mL
CC(C)[C@H]1C(=O)OC[C@@H](NC(=O)c2cnc3ccccc3n2)C(=O)N[C@@H](C)C(=O)N(C)[C@@H]2CSSC[C@H](C(=O)N1C)N(C)C(=O)[C@H](C)NC(=O)[C@H](NC(=O)c1cnc3ccccc3n1)COC(=O)[C@H](C(C)C)N(C)C2=O | CS-R |  | MIC |  | <1 µg/mL
Cc1cccc(N(CC(N)=O)C2CCCO2)c1 | H37Rv |  | MIC |  | >100 µg/mL
CC(C)=CCC/C(C)=C/CNCCNC12CC3CC(CC(C3)C1)C2 |  |  | MIC |  | 12.5 µM

ECn: concentration that inhibits the pathogen or its effect by n%. A number after MIC or MFC names an inhibition level or a share of isolates. Inhibition is in % at the dose shown (toxicity tests: loss of growth or viability). Lines come from different laboratories, so protocols vary. Blank or dashed fields: not listed here.